Record: PubChem BioAssay AID504761 (Drosophila RNAi Screening Center, 2011)
Purpose: 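Genome-wide fly cell screen for genes dengue virus requires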 (primary screen). Cell system: D.Mel-2 cells from Drosophila. Knock-down reagent: long dsRNA against Drosophila genes. Conditions: infection with dengue virus type 2; dose and infection time not stated. Read-out: 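Per well on two replicate plates, imaging gave the percent of cells positive for viral envelope protein, ranked by infection, and a nuclear count of cells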. Reading the numbers: infection score: higher = more virus-infected cells. Hit rule: 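Low infection ranks in the two replicates (chance level up to 0.065) followed by a retest with a 1.5-fold or larger significant decrease, p below 0.05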. Calls: active = confirmed: knock-down lowers infection; inactive = not picked or not confirmed.
The screen tested about 22,000 reagents; this is a random part of those that have a named target and a result. Of all reagents, 116 (0.52%) got an active call. 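Calls depend on retest data that are not deposited; infection was ranked per plate without normalising between plates; the unit of the infection score is not given.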 Unmarked entries are inactive. Not all columns of the deposit are shown. The record does not give: the amount of reagent, the time to read-out.

infection score, replicate 1, by gene and reagent
gammaTub23C: DRSC00820 2.42; DRSC27651 11.7
nAChRalpha5: DRSC01946 11.8; DRSC01947 3.67; DRSC22785 0.83; DRSC29085 18.2
CG8635: DRSC07226 8.18; DRSC29143 14.9
GABPI: DRSC00494 3.17; DRSC27495 2.53
yellow-e: DRSC12966 3.66; DRSC16563 5.84

In a second layout: entries from further up
gene,amplicon,"infection score, replicate 1"
gammaTub23C,DRSC27651,11.7
nAChRalpha5,DRSC01946,11.8

Continued.
infection score, replicate 1, by gene and reagent
Prp38: DRSC07060 6.55; DRSC28968 7.68
Pglym78: DRSC16787 7.03; DRSC24626 1.11
CG10413: DRSC02052 9.15
CG13155: DRSC06280 11.3
CG2926: DRSC12321 4.75
Tsp2A: DRSC18584 1.59
CG15717: DRSC19684 1.62
CG30148: DRSC06391 3.46
CG9445: DRSC05006 13.2
